The values below come from PMC3444823.

This assay has as its target truncated HIV-1 gp120SC (residues 83-492, intact variable loops) (HIV-1 (clade B isolate)). Description: ELISA. (In general: An ELISA detects its analyte on a solid surface through an enzyme-linked reagent.)

Substance “Fc-fusion protein of sCD4 (from UniProt P01730) (Fc fusion)” showed an EC50 above 100 nM.

One may read the EC50 as the concentration needed to bring the measured effect to its halfway point. Read a low EC50 as an effect from little substance.
